Pooled drug test results. Numbers come from NIAID ChemDB, via PubChem.

All rows: whole-cell or culture tests; organism: HIV-1

Rows are shuffled and stem from different studies.

Cc1cn([C@H]2C=C[C@@H](COP(=O)(Nc3cc(C(=O)Nc4cc(C(=O)Nc5cc(C(=O)Nc6cc(C(=O)NCCC(=N)N)n(C)c6)n(C)c5)n(C)c4)n(C)c3)OC(C)C)O2)c(=O)[nH]c1=O ; measure: EC50 ; method: p24 / antigen ; cells: MT-4 ; result: 1.63 µM
CN1CCn2c3c(c(O)c2C1=O)C(=O)N(Cc1ccc(F)cc1)CC3 ; measure: EC50 ; method: p24 ; cells: MT-4 ; result: <10 µM
O=C(O)c1cc(-n2cccc2)ccc1Cl ; measure: EC50 ; method: luciferase / cell fusion ; cells: PBMC/5.25M7 ; strain or isolate: 92UG092 X4 CLADE A ; result: 9.94 µM
C=CC[C@H](NC(=O)[C@H](Cc1ccccc1)NS(=O)(=O)N1CCOCC1)C(=O)N[C@@H](CC1CCCCC1)[C@@H](O)C[C@H](C(=O)NCCCC)C(C)C ; measure: EC50 ; method: cytopathic effect / XTT ; cells: CEM ; strain or isolate: IIIB ; result: 1.9 µM
CCn1cc(C(=O)O)c(=O)c2cc(F)c(N3CCN(CN4C(=O)C(=Nc5ccc(S(=O)(=O)Nc6ncccn6)cc5)c5cc(Br)ccc54)CC3)cc21 ; measure: EC50 ; method: cytopathic effect / MTT ; cells: MT-4 ; strain or isolate: IIIB ; result: >62 µg/mL
Cc1cn([C@@H]2O[C@H](CO[Si](C)(C)C(C)(C)C)[C@@H](O)[C@H]2O[Si](C)(C)C(C)(C)C)c(=O)n(Cc2nn[nH]n2)c1=O ; measure: EC50 ; method: cytopathic effect / trypan blue ; cells: MT-4 ; strain or isolate: IIIB ; result: >2 µM
Cc1cc(C)c(CS(=O)c2cccc[n+]2[O-])c(C)c1 ; measure: EC50 ; method: syncytia ; cells: CEM ; strain or isolate: HE ; result: 5.8 µg/mL
C=C1CN(S(=O)(=O)c2ccc(C)cc2)CCCN(CC2CC=CCC2)CCCN(S(=O)(=O)c2ccc(C)cc2)C1 ; measure: EC50 ; method: p24 ; cells: MT-4 ; strain or isolate: NL4-3 ; result: 0.6 µM
CCCCCCCCCCCC[C@@H]1OC(=O)[C@@H](C)[C@@H]1C(=O)O ; measure: EC50 ; method: cytopathic effect / syncytia ; cells: C8166 ; strain or isolate: IIIB ; result: 0.12 µM
CC(C)NC(=O)c1cc(F)ccc1CNC(=O)c1nc(N2CCCCS2(=O)=O)c2cccnc2c1O ; measure: EC50 ; method: p24 ; cells: MT-4 ; result: <5 µM
Cc1cn([C@H]2C[C@H](N=[N+]=[N-])[C@@H](COP(=O)(Nc3cc(C(=O)Nc4cc(C(=O)Nc5cc(C(=O)NCCC(=N)N)n(C)c5)n(C)c4)n(C)c3)OC3CCCCC3)O2)c(=O)[nH]c1=O ; measure: EC50 ; method: p24 / antigen ; cells: MT-4 ; result: 0.002 µM
Cc1cn([C@@H]2O[C@H](CO[Si](C)(C)C(C)(C)C)[C@@H](O)[C@H]2O[Si](C)(C)C(C)(C)C)c(=O)n(CCC(=O)O)c1=O ; measure: EC50 ; method: syncytia ; cells: CEM ; strain or isolate: IIIB ; result: >10 µM
O=C(O)c1cc(Cc2cc(C(c3ccc(O)c(C(=O)O)c3)c3ccc(O)c(C(=O)O)c3)cc(C(=O)O)c2O)ccc1O ; measure: EC50 ; method: cytopathic effect / XTT ; cells: CEM ; strain or isolate: IIIB ; result: 0.4 µg/mL
Cc1cn(C2C[C@H](N=[N+]=[N-])[C@@H](COP(=O)(Nc3cc(C(=O)Nc4cc(C(=O)Nc5cc(C(=O)NCCC#N)n(C)c5)n(C)c4)n(C)c3)OC(C)C)O2)c(=O)[nH]c1=O ; measure: EC50 ; method: p24 / antigen ; cells: CEM ; result: 0.065 µM
COc1ccc(C)cc1CS(=O)(=O)c1cccc[n+]1[O-] ; measure: EC50 ; method: syncytia ; cells: CEM ; strain or isolate: HE ; result: 38 µg/mL
COC(=O)Cn1c(=O)c(C)cn([C@@H]2O[C@H](CO[Si](C)(C)C(C)(C)C)[C@@H](O)[C@H]2O[Si](C)(C)C(C)(C)C)c1=O ; measure: EC50 ; method: syncytia ; cells: CEM ; strain or isolate: IIIB ; result: >10 µM
O=C(O)c1cccc(Cc2cccc(C(=O)O)c2O)c1O ; measure: EC50 ; method: cytopathic effect / XTT ; cells: CEM ; strain or isolate: IIIB ; result: 16.5 µg/mL
C#CCNC(=O)NCCC[C@H](NC(C)=O)C(=O)NCc1ccccc1 ; measure: EC50 ; method: cytopathic effect / XTT ; cells: CEM-IW + CEM ; strain or isolate: IIIB ; result: >100 µM
Cc1cn([C@H]2C[C@H](N=[N+]=[N-])[C@@H](COP(=O)(Nc3cc(C(=O)Nc4cc(C(=O)Nc5cc(C(=O)NCCC(=N)N)n(C)c5)n(C)c4)n(C)c3)OC(C)C)O2)c(=O)[nH]c1=O ; measure: EC50 ; method: p24 / antigen ; cells: MT-4 ; result: 0.007 µM
CNOC(=O)Cn1c(=O)c(C)cn([C@@H]2O[C@H](CO[Si](C)(C)C(C)(C)C)[C@@H](O)[C@H]2O[Si](C)(C)C(C)(C)C)c1=O ; measure: EC50 ; method: syncytia ; cells: CEM ; strain or isolate: IIIB ; result: ≥10 µM
Cc1cn([C@H]2C=C[C@@H](COP(=O)(Nc3cc(C(=O)Nc4cc(C(=O)Nc5cc(C(=O)NCCC#N)n(C)c5)n(C)c4)n(C)c3)OC3CCCCC3)O2)c(=O)[nH]c1=O ; measure: EC50 ; method: syncytia ; cells: CEM/TK- ; result: 1.31 µM
CC1(CO)O[C@H](n2cnc3c(N)ncnc32)[C@@H](O)[C@H]1O ; measure: EC50 ; cells: MT-4 ; strain or isolate: IIIB ; result: >100 µM
COC(=O)Cn1c(=O)c(C)cn([C@H]2C=C[C@@H](CO[Si](C)(C)C(C)(C)C)O2)c1=O ; measure: EC50 ; method: syncytia ; cells: CEM ; strain or isolate: IIIB ; result: >10 µM
CCS(=O)(=O)N(C)c1nc(C(=O)NCc2ccc(F)cc2C(=O)NC)c(O)c2ncccc12 ; measure: EC95 ; method: p24 ; cells: MT-4 ; result: <5 µM
Cc1cccc(C)c1N1C(=O)c2ccc([N+](=O)[O-])cc2C1=O ; measure: EC50 ; method: syncytia ; cells: CEM ; strain or isolate: IIIB ; result: >667 µM
CC(=O)N[C@@H](CCCNCc1ccccc1)C(=O)NCc1ccccc1 ; measure: EC50 ; method: cytopathic effect / XTT ; cells: CEM-IW + CEM ; strain or isolate: IIIB ; result: >100 µM
CCn1cc(C(=O)O)c(=O)c2cc(F)c(N3CCN(CN4C(=O)C(=Nc5ccc(S(=O)(=O)Nc6ncccn6)cc5)c5ccccc54)CC3)cc21 ; measure: EC50 ; method: cytopathic effect / MTT ; cells: MT-4 ; strain or isolate: IIIB ; result: >48 µg/mL
Cc1cn([C@H]2C=C[C@@H](COP(=O)(Nc3cc(C(=O)Nc4cc(C(=O)Nc5cc(C(=O)NCCC#N)n(C)c5)n(C)c4)n(C)c3)OC(C)C)O2)c(=O)[nH]c1=O ; measure: EC50 ; method: p24 / antigen ; cells: MT-4 ; result: 0.16 µM
C=C1CN(S(=O)(=O)c2ccc(C)cc2)CCCN(CC(C)CC)CCCN(S(=O)(=O)c2ccc(C)cc2)C1 ; measure: EC50 ; method: p24 ; cells: MT-4 ; strain or isolate: NL4-3 ; result: 0.98 µM
Cc1cc(/C=C/C#N)cc(C)c1Oc1nc(NC2CCN(Cc3ccccc3Cl)CC2)nc2ccsc12 ; changes: NNRTI-resistant (RT F227L V106A) ; measure: EC50 ; method: MTT ; cells: MT-4 ; strain or isolate: IIIB ; result: 0.0723 µM
NS(=O)(=O)c1ccc(Cc2cc3c(cc2F)[C@@](C#CC2CC2)(C(F)(F)F)NC(=O)N3)cc1 ; measure: EC50 ; method: GFP ; cells: PBM ; result: 0.132 µM
Cc1cn([C@H]2C[C@H](N=[N+]=[N-])[C@@H](COP(=O)(Nc3cc(C(=O)Nc4cc(C(=O)NCCC(=N)N)n(C)c4)n(C)c3)OC3CCCCC3)O2)c(=O)[nH]c1=O ; measure: EC50 ; method: syncytia ; cells: CEM/TK- ; result: 0.122 µM
CN(C)C(=O)c1cc(F)ccc1CNC(=O)c1nc(N2CCCCS2(=O)=O)c2cccnc2c1O ; measure: EC50 ; method: p24 ; cells: MT-4 ; result: <5 µM
Cc1cccc(C)c1N1C(=O)c2ccc(C(=O)O)cc2C1=O ; measure: EC50 ; method: syncytia ; cells: CEM ; strain or isolate: IIIB ; result: >27 µM
C=C1CN(S(=O)(=O)c2ccc(C)cc2)CCCN(CCC(C)C)CCCN(S(=O)(=O)c2ccc(C)cc2)C1 ; measure: EC50 ; method: p24 ; cells: MT-4 ; strain or isolate: NL4-3 ; result: 0.77 µM
CC(=O)N[C@@H](CCCN(Cc1ccccc1)C(=O)NCCCl)C(=O)NCc1ccccc1 ; measure: EC50 ; method: cytopathic effect / XTT ; cells: CEM-IW + CEM ; strain or isolate: IIIB ; result: >100 µM
Cc1cccc(C)c1N1C(=O)c2ccc(N)cc2C1=O ; measure: EC50 ; method: syncytia ; cells: CEM ; strain or isolate: IIIB ; result: >30 µM
O=C(O)C1=CC(=C(c2ccc(O)c(C(=O)O)c2)c2ccc(O)c(C(=O)O)c2)C=C(Cc2ccc(O)c(C(=O)O)c2)C1=O ; measure: EC50 ; method: cytopathic effect / MTT ; cells: MT-4 ; strain or isolate: IIIB ; result: 2.5 µg/mL
CCn1cc(C(=O)O)c(=O)c2cc(F)c(N3CCN(CN4C(=O)C(=Nc5ccc(S(=O)(=O)Nc6ncccn6)cc5)c5cc(Cl)ccc54)CC3)cc21 ; measure: EC50 ; method: cytopathic effect / MTT ; cells: MT-4 ; strain or isolate: IIIB ; result: >63 µg/mL
Cc1cn([C@H]2C=C[C@@H](COP(=O)(Nc3cc(C(=O)Nc4cc(C(=O)Nc5cc(C(=O)NCCC(=N)N)n(C)c5)n(C)c4)n(C)c3)OC(C)C)O2)c(=O)[nH]c1=O ; measure: EC50 ; method: syncytia ; cells: CEM ; result: 0.65 µM
C[C@]1(CO)O[C@@H](n2cc(F)c(N)nc2=O)[C@H](O)[C@@H]1O ; measure: EC50 ; cells: MT-4 ; strain or isolate: IIIB ; result: >100 µM
CCn1cc(C(=O)O)c(=O)c2cc(F)c(N3CCN(CN4C(=O)C(=Nc5ccc(S(=O)(=O)Nc6ncnc(OC)c6OC)cc5)c5ccccc54)CC3)cc21 ; measure: EC50 ; method: cytopathic effect / MTT ; cells: MT-4 ; strain or isolate: IIIB ; result: >88 µg/mL
Cc1cc(/C=C/C#N)cc(C)c1Oc1nc(NC2CCN(Cc3ccc(Br)cc3)CC2)nc2ccsc12 ; changes: NNRTI-resistant (RT F227L V106A) ; measure: EC50 ; method: MTT ; cells: MT-4 ; strain or isolate: IIIB ; result: 0.161 µM
CNC(=O)NCCCC[C@H](NC(C)=O)C(=O)NCc1ccccc1 ; measure: EC50 ; method: cytopathic effect / XTT ; cells: CEM-IW + CEM ; strain or isolate: IIIB ; result: >100 µM
Cc1ccc(S(=O)(=O)N2CCCN(Cc3ccccc3)CCCN(S(=O)(=O)c3ccc(C)cc3)CC(=O)C2)cc1 ; measure: EC50 ; method: p24 ; cells: MT-4 ; strain or isolate: NL4-3 ; result: >15 µM
Cc1cn([C@H]2C[C@H](N=[N+]=[N-])[C@@H](CO)O2)c(=O)[nH]c1=O ; measure: EC50 ; method: cytopathic effect / syncytia ; cells: C8166 ; strain or isolate: IIIB ; result: 0.01889 µM
CCOC(=O)c1ccc(CN2CCC(Nc3nc(Oc4c(C)cc(/C=C/C#N)cc4C)c4sccc4n3)CC2)cc1 ; changes: NNRTI-resistant (RT L100I) ; measure: EC50 ; method: MTT ; cells: MT-4 ; strain or isolate: IIIB ; result: 0.0268 µM
C=CCNC(=O)NCCCC[C@H](NC(C)=O)C(=O)NCc1ccccc1 ; measure: EC50 ; method: cytopathic effect / XTT ; cells: CEM-IW + CEM ; strain or isolate: IIIB ; result: >100 µM
Cc1cc(/C=C/C#N)cc(C)c1Oc1nc(NC2CCN(Cc3ccccc3Br)CC2)nc2ccsc12 ; changes: NNRTI-resistant (RT L100I) ; measure: EC50 ; method: MTT ; cells: MT-4 ; strain or isolate: IIIB ; result: 0.0478 µM
CCn1cc(C(=O)O)c(=O)c2cc(F)c(N3CCN(CN4C(=O)C(=Nc5ccc(S(=O)(=O)Nc6ncnc(OC)c6OC)cc5)c5cc(Cl)ccc54)CC3)cc21 ; measure: EC50 ; method: cytopathic effect / MTT ; cells: MT-4 ; strain or isolate: IIIB ; result: >51 µg/mL
Cc1cc(S(=O)(=O)Nc2nc3ncccc3[nH]2)c(S)cc1Cl ; measure: EC50 ; method: cytopathic effect / MTT ; cells: CEM + CEM-SS ; result: 32.1 µM
Cc1cc(C#N)cc(C)c1Oc1nc(NC2CCC(NCc3ccc(F)cc3)CC2)nc2ccsc12 ; changes: NNRTI-resistant (RT L100I) ; measure: EC50 ; method: MTT ; cells: MT-4 ; strain or isolate: IIIB ; result: 0.919 µM

ECn: concentration that inhibits the pathogen or its effect by n%.